Results of unrelated studies side by side (data: NIAID ChemDB).

Common to all: tests in culture; species: Hepatitis C virus

Two numbers with a dash give a range or band.

compound,dose,method,mutations,cell line,strain,endpoint,result
C=CCn1cc(CN2CCC(C(=O)Nc3cccc(-c4cccc(F)c4)c3)CC2)c(C)n1,5 µM,PCR,,Huh7,JFH-1,inhibition,≥40%
O=C(N[C@@H](C(=O)N1CCC[C@H]1c1ncc(-c2ccc(-c3ccc(-c4cnc([C@@H]5CCCN5C(=O)[C@H](NC(=O)C5CC5)c5ccccc5)s4)cc3)cc2)s1)c1ccccc1)C1CC1,,luciferase / reporter gene,Y93H,Huh7.5,genotype 1b,fold resistance,939
CCNC(=S)Nc1ccc2c(c1)Cc1cc(Br)ccc1-2,,reporter gene / fluorescence,,Ava5-EG(delta4AB)SEAP,,EC50,0.001–1 µM
CC1(C)CC(=O)C2=C(C1)Nc1c(O)cccc1N(C(=O)CCC(=O)NC1CSCC1O)C2c1ccc(OCc2ccccc2)cc1Cl,,luciferase / reporter gene / replicon,,,1b,EC50,43.3 µM
NC(=S)Nc1cccc(OCCCCCOc2ccc(Br)cc2)c1,,reporter gene / fluorescence,,Ava5-EG(delta4AB)SEAP,,EC50,0.001–1 µM
COC(=O)N[C@H](C(=O)N1CCCC1c1ncc(-c2ccc(-c3ccc(-c4cnc([C@@H]5CC(C)CN5C(=O)[C@@H](NC(=O)CO)C(C)C)[nH]4)cc3)cc2)[nH]1)C(C)C,,luciferase,D320E,ET,1b,EC50,0.0000062 µM
CC1CCC(C(=O)N(c2cc(C#CC(C)(C)C)sc2C(=O)O)C2CCC(O)CC2)CC1,,luciferase,V494A,Huh7,H77 (GT1a),fold resistance,27.2
CN1CCN(C(=S)Nc2cccc(OCCCCCOc3ccc(-c4ccccc4)cc3)c2)CC1,,reporter gene / fluorescence,,Ava5-EG(delta4AB)SEAP,,EC50,0.001–1 µM
COC(=O)N1c2cccc(O)c2NC2=C(C(=O)CC(C)(C)C2)C1c1ccc(OCc2ccccc2)cc1Cl,,luciferase / reporter gene / replicon,,,1b,EC50,3.71 µM
CCCCNc1ccc2c(c1)Cc1cc(NC(N)=S)ccc1-2,,reporter gene / fluorescence,,Ava5-EG(delta4AB)SEAP,,EC50,0.001–1 µM
O=C(Nc1cccc(-c2ccn[nH]2)c1)C1CCN(Cc2cccc3ccccc23)CC1,15 µM,PCR,,Huh7,JFH-1,inhibition,<40%
S=C(NCCc1ccccc1)Nc1cccc(OCCCCCc2ccccc2)c1,,reporter gene / fluorescence,,Ava5-EG(delta4AB)SEAP,,EC50,0.001–1 µM
COc1ccccc1/C=C/CN1CCC(C(=O)Nc2ccc(-n3nc(C)cc3C)cc2)CC1,15 µM,PCR,,Huh7,JFH-1,inhibition,≥40%
CC(C)C(=O)N1c2cccc(O)c2NC2=C(C(=O)CC(C)(C)C2)C1c1cc(Cl)c(Oc2ccccc2Br)s1,,luciferase / reporter gene / replicon,,,1b,EC50,1.81 µM
NC(=S)Nc1cccc(OCCCCCOc2cccc(Nc3ccccc3)c2)c1,,reporter gene / fluorescence,,Ava5-EG(delta4AB)SEAP,,EC50,0.001–1 µM
CC1(C)CC(=O)C2=C(C1)Nc1c(O)cccc1N(C(=O)CCC(=O)NCc1ccco1)C2c1ccc(OCc2ccccc2)cc1Cl,,luciferase / reporter gene / replicon,,,1b,EC50,6.75 µM
CCN1CCC(CN2CCC(C(=O)Nc3ccc(Oc4ccccc4F)cc3)CC2)CC1,5 µM,PCR,,Huh7,JFH-1,inhibition,≥70%
CC1(C)CC(=O)C2=C(C1)Nc1c(O)cccc1N(C(=O)c1ccccc1F)C2c1ccc(OCc2ccccc2)cc1F,,luciferase / reporter gene / replicon,,,1b,EC50,12.25 µM
Cc1ccc(CN2CCC(C(=O)Nc3cccc(-c4cc5ccccc5[nH]4)c3)CC2)o1,15 µM,PCR,,Huh7,JFH-1,inhibition,<40%

For reference, 2 entries again:

compound	dose	method	mutations	cell line	strain	endpoint	result
NC(=S)Nc1cccc(OCCCCCOc2ccc(Br)cc2)c1		reporter gene / fluorescence		Ava5-EG(delta4AB)SEAP		EC50	0.001–1 µM
CC1(C)CC(=O)C2=C(C1)Nc1c(O)cccc1N(C(=O)c1ccccc1F)C2c1ccc(OCc2ccccc2)cc1F		luciferase / reporter gene / replicon			1b	EC50	12.25 µM

ECn: concentration that inhibits the pathogen or its effect by n%. An empty or dashed field is not shown. Fold resistance: result on the changed form divided by that on wild type. Lines come from different laboratories, so protocols vary. Percent inhibition refers to the dose given; in toxicity tests it is the harm to the cells.